PubChem BioAssay AID1224833 – University of Georgia, 2016

Assay: 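Host factors restraining rotavirus as candidate antiviral genes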 (primary screen)
System: monkey MA104 kidney cells
Knock-down reagent: siRNA pool against human genes, 50 nM
Timing: 48 h knock-down before infection; read 24 h after infection
Challenge: infection with rotavirus strain RV3 two days after transfection; infectious dose for this stage not given
Measured: 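Rotavirus antigen per well by fluorescent immunoassay, normalised to non-targeting control wells on each plate and given as a standard z-score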
Scale: z-score vs non-targeting control: higher = more rotavirus replication than with non-targeting control
Rule for the call: In these data the active calls have z-score vs non-targeting control at about -1 or lower, or at about 1 or higher
Calls: active = z-score beyond 1 either way; inactive = z-score within 1 of zero
Shown is an unselected part of about 12,000 reagents. About 5,600 of all reagents (46%) were called active. 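Active calls cover z-scores past 1 in both directions, so they include lowered as well as raised rotavirus replication.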 Entries without a mark were called inactive.

After knock-down of ITPRIPL1, the screen gave z-score vs non-targeting control 0.517.
With knock-down of PANX1, the screen gave z-score vs non-targeting control -2.42 (active).
For PRRX1 the deposit lists z-score vs non-targeting control -2.2 (active).
With knock-down of TCEAL3, the record shows z-score vs non-targeting control -0.467.
Against ARHGAP19 the deposit lists z-score vs non-targeting control -1.23 (active).
For OR10G3 the deposit lists z-score vs non-targeting control 0.152.
TNFSF4 showed z-score vs non-targeting control -1.64 (active).
For CDH23, the entry reads z-score vs non-targeting control -2.72 (active).
MRPL50 gave z-score vs non-targeting control -0.398.
After knock-down of ERAS, the record shows z-score vs non-targeting control -1.04 (active).
DFFA scored z-score vs non-targeting control 2.07 (active).
QTRT1 scored z-score vs non-targeting control -1.12 (active).
IL17B gave z-score vs non-targeting control -0.0298.
Against TRMT13 the deposit lists z-score vs non-targeting control -1.23 (active).
After knock-down of TCEAL6, the record shows z-score vs non-targeting control -0.375.
Against CDY2A, the values are z-score vs non-targeting control -1.65 (active).
Knock-down of ANGPT2 came out at: z-score vs non-targeting control -1.78 (active).
BEND3 gave z-score vs non-targeting control -0.332.
Silencing of PRAMEF1 came out at: z-score vs non-targeting control 1.16 (active).
With knock-down of DHDDS, the screen gave z-score vs non-targeting control -2.14 (active).
Silencing of TMEM14C resulted in: z-score vs non-targeting control -1.95 (active).
SIRPB1 gave z-score vs non-targeting control 0.133.
Depletion of CFD resulted in: z-score vs non-targeting control 1.22 (active).
Silencing of PLA2G12B came out at: z-score vs non-targeting control -2.08 (active).
MBD3 showed z-score vs non-targeting control 0.202.
Depletion of SIGLEC1 resulted in: z-score vs non-targeting control 0.552.
For SLIRP the deposit lists z-score vs non-targeting control -1.01 (active).

Part of the list above in another layout:
gene knocked down,z-score vs non-targeting control
SIRPB1,0.133
CFD,1.22 (active)
PLA2G12B,-2.08 (active)
MBD3,0.202
SIGLEC1,0.552
SLIRP,-1.01 (active)

Continued:
Depletion of CREB5 came out at: z-score vs non-targeting control -1.28 (active).
After knock-down of RAD54L, the screen gave z-score vs non-targeting control -0.651.
With knock-down of ST8SIA3, the screen gave z-score vs non-targeting control -0.697.
Knock-down of FAM3C came out at: z-score vs non-targeting control 0.0532.
After knock-down of LY75, the screen gave z-score vs non-targeting control -1.8 (active).
Depletion of SLCO2A1 gave: z-score vs non-targeting control -0.87.
Depletion of SNX25 gave: z-score vs non-targeting control -1.36 (active).
After knock-down of RWDD2B, the screen gave z-score vs non-targeting control 0.598.
Knock-down of SPOCK3 resulted in: z-score vs non-targeting control 0.244.
For CPO, the entry reads z-score vs non-targeting control -0.93.
PALMD showed z-score vs non-targeting control -0.768.
Depletion of TDRD7 resulted in: z-score vs non-targeting control -0.699.
Silencing of LINC01565 resulted in: z-score vs non-targeting control 0.871.
For ZC3H7A, the entry reads z-score vs non-targeting control 0.634.
For CHL1, the entry reads z-score vs non-targeting control -0.786.
Depletion of TMA16 gave: z-score vs non-targeting control -1.45 (active).
ARHGEF2 showed z-score vs non-targeting control 1.28 (active).
With knock-down of RPL6 the results were z-score vs non-targeting control -0.786.
PAQR7 gave z-score vs non-targeting control -1.56 (active).
After knock-down of OR2M2 the results were z-score vs non-targeting control 0.185.
PKP4 scored z-score vs non-targeting control -0.0901.
TIMM13 scored z-score vs non-targeting control 0.321.
Depletion of TFCP2L1 resulted in: z-score vs non-targeting control 0.754.
OR2T11 scored z-score vs non-targeting control -0.758.
PLAC8L1 gave z-score vs non-targeting control -2.4 (active).
VIP gave z-score vs non-targeting control -2.79 (active).
QPRT gave z-score vs non-targeting control -1.44 (active).
CELF2 scored z-score vs non-targeting control -0.965.
After knock-down of NFATC1, the record shows z-score vs non-targeting control -2.8 (active).
For GTF2F1 the deposit lists z-score vs non-targeting control -1.39 (active).
With knock-down of LSM2 the results were z-score vs non-targeting control -1.03 (active).
After knock-down of TM4SF19, the record shows z-score vs non-targeting control 1.35 (active).
ANO8 showed z-score vs non-targeting control -0.541.
